# Literature values as cited in patent publication US20260382601A1, “USE OF CYP3A4/5 INDUCERS IN TREATING OR ALLEVIATING PERIPHERAL NEUROPATHY” (published 2026).
# Read-outs that look alike come from different tables or passages of the source.
# How the values were obtained:
# CYP3A4/5 = conditions: role: inhibitor; human liver microsomes
# P-glycoprotein (P-gp) = conditions: in vitro
smiles,measurement,setting,value
CC[C@H](C)[C@@H]([C@@H](CC(=O)N1CCC[C@H]1[C@H](OC)[C@@H](C)C(=O)N[C@H](C)[C@@H](O)c1ccccc1)OC)N(C)C(=O)[C@@H](NC(=O)[C@@H](NC)C(C)C)C(C)C,inhibitory activity on CYP3A4/5 and other CYP450 isoforms,CYP3A4/5,inhibitory activity on CYP3A4/5 but not on other CYP450 isoforms
same,P-gp substrate / inhibitor status,P-glycoprotein (P-gp),"a substrate, but not an inhibitor, of P-glycoprotein (P-gp)"
same,reduction of exposure amount of MMAE,"CYP3A; Adcetris in combination with rifampicin (CYP3A inducer), literature 17, 18",approximately 46%
same,reduction of exposure amount of MMAE,"CYP3A; brentuximab vedotin with rifampicin, literature 19",approximately 46%
